The same purity stands for every peptide and may come from a single statement. HELM strings list residues between dots; [ac] is acetyl, [am] amide, other brackets name non-standard units.
Experiment: peptide synthesis
Conditions: whole synthesis, HPLC analysis; SPE-MS

Substance | final HPLC purity
Ac-VTNNTFTLKGG | >90%
PEPTIDE1{V.T.N.N.T.F.T.L.K.G.G.A.P.T.K.V.T.F.G.D.[am]}$$$$V2.0 | >90%
VTRELMRELNGG/AYTRYVDN | >90%
VVTTKIALKGG/KIVNNWLK | >90%
